Measured values from several laboratories, pooled; numbers as filed in NIAID ChemDB.

Shared fields: target-level tests

Blank or dashed fields: not listed here. a–b is a range or a potency band. ICn: concentration for n% inhibition. Percent inhibition refers to the dose given; in toxicity tests it is the harm to the cells. Lines come from different laboratories, so protocols vary.

| smiles | protein | agent | endpoint | dose | result |
|---|---|---|---|---|---|
| O=C(Nc1ccccc1-c1nc(C(=O)O)c(O)c(=O)[nH]1)OCc1ccccc1 | HCV polymerase | Hepatitis C virus | IC50 | - | <100 µM |
| COc1ccc(-c2ccc(Cl)cc2)c(-c2ccc3cc(-c4nc5cc(C(=O)O)ccc5n4CC4CCCO4)ccc3n2)c1 | NS5B polymerase | Hepatitis C virus | inhibition | 33 µM | 99.17% |
| COc1nc(NCCc2ccccn2)nc(Nc2ccc3[nH]ncc3c2)n1 | DNA polymerase | Hepatitis B virus | inhibition | 0.01 µg/mL | 36% |
| CC(C)C(=O)N(Cc1ccc(Cl)cc1)c1cc(-c2ccccc2)sc1C(=O)O | NS3 ATPase | Hepatitis C virus | IC50 | - | 5–20 µM |
| O=C(O)c1cc2nc(-c3ccccc3OCc3ccccc3)cc(-c3ccc(-c4ccccc4)cc3)n2n1 | RNA-dependent RNA polymerase | Hepatitis C virus | IC50 | - | 1–10 µM |
| O=C(NCc1ccc2c(c1)CCO2)Nc1cscc1-c1nc(C(=O)O)c(O)c(=O)[nH]1 | HCV polymerase | Hepatitis C virus | IC50 | - | <25 µM |
| O=C(O)c1cc2nc(-c3ccc(Cl)cc3)cc(-c3ccccc3Cl)n2n1 | RNA-dependent RNA polymerase | Hepatitis C virus | IC50 | - | >10 µM |
| O=C(O)c1sc(-c2ccccc2)cc1NS(=O)(=O)c1cc(F)c(Br)cc1F | NS3 ATPase | Hepatitis C virus | IC50 | - | <5 µM |
| CNC1N=C(OC)N=C(Nc2ccc3cn[nH]c3c2)N1CN | DNA polymerase | Hepatitis B virus | inhibition | 0.1 µg/mL | 36% |
| CC(C)=CCCc1c(-c2ccc(OCc3ccccc3)cc2)nc2cc(C(=O)O)[nH]n2c1=O | RNA-dependent RNA polymerase | Hepatitis C virus | IC50 | - | 1–10 µM |
| CNC(=O)c1c(-c2ccc(F)cc2)oc2cc(-c3cnc[nH]3)c(OC)cc12 | Nonstructural protein 5B | Hepatitis C virus | IC50 | - | ≤0.5 µM |
| O=C(NS(=O)(=O)Cc1ccccc1)c1cc2nc(-c3ccco3)c(C3CCCCC3)c(=O)n2[nH]1 | RNA-dependent RNA polymerase | Hepatitis C virus | IC50 | - | <1 µM |
| O=C(O)c1ccc2c(c1)nc(-c1ccc3nc(-c4ccccc4-c4ccccc4)ccc3c1)n2C1CCCCC1 | NS5B polymerase | Hepatitis C virus | inhibition | 100 µM | 101% |
| Cc1ccc(C(=O)N(Cc2ccc(F)cc2F)c2cc(-c3ccccc3)sc2C(=O)O)cc1 | NS3 ATPase | Hepatitis C virus | IC50 | - | <5 µM |
| Nc1c(Cl)cc(-c2ccc3cc(-c4nc5cc(C(=O)O)ccc5n4C4CCCCC4)ccc3n2)cc1Cl | NS5B polymerase | Hepatitis C virus | inhibition | 100 µM | 101% |
| O=C(O)c1nc(-c2cccc(CSc3ccncc3)c2)[nH]c(=O)c1O | HCV polymerase | Hepatitis C virus | IC50 | - | <100 µM |
| CCOCCOc1ccc(-c2ccc(Cl)cc2)c(-c2ccc3cc(-c4nc5cc(C(=O)O)ccc5n4C4CCCCC4)ccc3n2)c1 | NS5B polymerase | Hepatitis C virus | inhibition | 33 µM | 100.8% |
| O=C(O)c1nc(-c2cscc2NC(=O)C(O)c2ccccc2)[nH]c(=O)c1O | HCV polymerase | Hepatitis C virus | IC50 | - | <25 µM |
| Cc1ccc(-c2cc(NS(=O)(=O)c3ccc(F)cc3F)c(C(=O)O)s2)cc1 | NS3 ATPase | Hepatitis C virus | IC50 | - | <5 µM |
| O=C(Nc1ccccc1)Nc1ccsc1-c1nc(C(=O)O)c(O)c(=O)[nH]1 | HCV polymerase | Hepatitis C virus | IC50 | - | <25 µM |
| CON1C(Nc2ccc3cn[nH]c3c2)=NC(NC(C)C)=NC1NC(C)C | DNA polymerase | Hepatitis B virus | inhibition | 1 µg/mL | 65% |
| O=C(OCc1ccc(S(=O)(=O)Nc2ccccc2-c2nc(C(=O)O)c(O)c(=O)[nH]2)s1)c1ccccc1 | HCV polymerase | Hepatitis C virus | IC50 | - | <100 µM |
| O=C(O)C1CCCN1C(=O)c1ccc2c(c1)nc(-c1ccc3nc(-c4ccccc4)ccc3c1)n2C1CCCCC1 | NS5B polymerase | Hepatitis C virus | inhibition | 33 µM | 49.99% |
| CNC(=O)c1c(-c2ccc(F)cc2)oc2cc(C(C)N(C)S(C)(=O)=O)c(OC)cc12 | Nonstructural protein 5B | Hepatitis C virus | IC50 | - | ≤0.5 µM |
| O=C(O)c1nc(-c2ccccc2NS(=O)(=O)c2cccc3cccnc23)[nH]c(=O)c1O | HCV polymerase | Hepatitis C virus | IC50 | - | <100 µM |
| O=C(O)c1cc2nc(-c3cccc(Oc4ccccc4)c3)cc(NCc3ccccc3Cl)n2n1 | RNA-dependent RNA polymerase | Hepatitis C virus | IC50 | - | 1–10 µM |
| Cc1ccc(C(=O)N(C)c2cc(-c3ccccc3)sc2C(=O)O)cc1[N+](=O)[O-] | NS3 ATPase | Hepatitis C virus | IC50 | - | 5–20 µM |
| CNC(=O)c1c(-c2ccc(F)cc2)oc2cc(N(C)CCOC)c(OC(C)C)cc12 | Nonstructural protein 5B | Hepatitis C virus | IC50 | - | ≤0.5 µM |
| NC(=O)c1cnn2c(C3CCCCC3)c(-c3ccc(OCc4ccccc4)cc3)cnc12 | RNA-dependent RNA polymerase | Hepatitis C virus | IC50 | - | 1–10 µM |
| O=C(NC(CO)C(=O)O)c1ccc2c(c1)nc(-c1ccc3ncccc3c1)n2C1CCCCC1 | NS5B polymerase | Hepatitis C virus | inhibition | 33 µM | 66.96% |
| CCOC(=O)c1cnn2c(-c3cccc(Oc4ccccc4)c3)c(-c3ccccc3)cnc12 | RNA-dependent RNA polymerase | Hepatitis C virus | IC50 | - | >10 µM |
| COc1nc(NCCCn2ccnc2)nc(Nc2ccc3cn[nH]c3c2)n1 | DNA polymerase | Hepatitis B virus | inhibition | 1 µg/mL | 58% |
| Cc1nc(-c2ccc(Cl)cc2)sc1-c1ccc2cc(-c3nc4cc(C(=O)O)ccc4n3C3CCCCC3)ccc2n1 | NS5B polymerase | Hepatitis C virus | inhibition | 100 µM | 103% |
| Cc1ccccc1S(=O)(=O)Nc1cc(-c2ccc(N)cc2)sc1C(=O)O | NS3 ATPase | Hepatitis C virus | IC50 | - | 5–20 µM |
| COc1nc(Nc2ccc3[nH]ncc3c2)nc(N2CCOCC2)n1 | DNA polymerase | Hepatitis B virus | inhibition | 0.1 µg/mL | 50% |
| CNC(=O)c1c(-c2ccc(F)cc2)oc2cc(-c3cccc(S(C)(=O)=O)c3)c(OC(C)C)cc12 | Nonstructural protein 5B | Hepatitis C virus | IC50 | - | ≤0.5 µM |
| O=C(O)c1ccc2c(c1)nc(-c1ccc3nc(-c4cc(OCC(=O)N5CCCC5)ccc4-c4ccc(Cl)cc4)ccc3c1)n2C1CCCCC1 | NS5B polymerase | Hepatitis C virus | inhibition | 33 µM | 97.42% |
| COC(=O)CCC(=O)Nc1cnn2c(C3CCCCC3)c(-c3ccc(OCc4ccccc4)cc3)cnc12 | RNA-dependent RNA polymerase | Hepatitis C virus | IC50 | - | >10 µM |
| Cc1ccc(S(=O)(=O)Nc2cc(-c3ccccc3)sc2C(=O)Nc2nccs2)cc1 | NS3 ATPase | Hepatitis C virus | IC50 | - | 5–20 µM |

Repeating the first 4 entries:

{"smiles": "O=C(Nc1ccccc1-c1nc(C(=O)O)c(O)c(=O)[nH]1)OCc1ccccc1", "protein": "HCV polymerase", "agent": "Hepatitis C virus", "endpoint": "IC50", "result": "<100 µM"}
{"smiles": "COc1ccc(-c2ccc(Cl)cc2)c(-c2ccc3cc(-c4nc5cc(C(=O)O)ccc5n4CC4CCCO4)ccc3n2)c1", "protein": "NS5B polymerase", "agent": "Hepatitis C virus", "endpoint": "inhibition", "dose": "33 µM", "result": "99.17%"}
{"smiles": "COc1nc(NCCc2ccccn2)nc(Nc2ccc3[nH]ncc3c2)n1", "protein": "DNA polymerase", "agent": "Hepatitis B virus", "endpoint": "inhibition", "dose": "0.01 µg/mL", "result": "36%"}
{"smiles": "CC(C)C(=O)N(Cc1ccc(Cl)cc1)c1cc(-c2ccccc2)sc1C(=O)O", "protein": "NS3 ATPase", "agent": "Hepatitis C virus", "endpoint": "IC50", "result": "5–20 µM"}